A mixed list of measured activities; the numbers were collected in NIAID ChemDB.

All rows: whole-cell or culture tests; organism: Herpes simplex virus 2

An empty or dashed field is not shown. ECn is the concentration giving n% inhibition of infection, replication or growth. Lines come from different laboratories, so protocols vary. Two numbers with a dash give a range or band.

SMILES,strain or isolate,method,measure,cells,result
CC1=C[C@H](n2ccc(=O)[nH]c2=O)C[C@]1(C)CO,,,EC50,,>100 µg/mL
COc1ccc(-c2[nH]c3nc4c(ncn4COCCO)c(=O)n3c2-c2ccc(C(c3ccccc3)c3ccccc3)cc2)cc1,196,cytopathic effect,EC50,,>16 µg/mL
O=c1[nH]cnc2c1ncn2C[C@H]1C[C@H]1CO,,,EC50,VERO,>50 µM
CC#Cc1cn([C@@H]2O[C@H](COP(=O)(NCCCCCCCCCCCC)Oc3ccccc3)[C@@H](O)[C@@H]2O)c(=O)[nH]c1=O,SC16,plaque count,EC50,VERO,10–100 µM
O=c1ccn([C@@H]2O[C@H](CO)[C@@H](O)[C@H]2O)c(=O)[nH]1,MS,,MIC,,100 µg/mL
O=C1C2=C(C(=O)c3ccccc31)C1Oc3cc4c(cc3C1CO2)OCCO4,G,plaque count,EC50,VERO,0.025 µg/mL
CC#Cc1cn([C@@H]2O[C@H](COP(=O)(OCC)Oc3ccccc3)[C@@H](O)[C@@H]2O)c(=O)[nH]c1=O,SC16,plaque count,EC50,VERO,>100 µM
CC(C)=CCC[C@@H](COS(=O)(=O)O)C1CCC2C3CC[C@H]4C[C@H](OS(=O)(=O)O)[C@@H](O)CC4(C)C3CCC21C,G,plaque count,EC50,VERO,24.3 µg/mL
CC#Cc1cn([C@@H]2O[C@H](COP(=O)(Oc3ccccc3)Oc3ccc([N+](=O)[O-])cc3)[C@@H](O)[C@@H]2O)c(=O)[nH]c1=O,SC16,plaque count,EC50,VERO,>100 µM
CC1(CO)CCC(Cc2nc3ncnc(N)c3[nH]2)C1(C)C,G,cytopathic effect,EC50,E6SM,200 µg/mL
O=c1[nH]c(=O)n([C@@H]2O[C@H](CO)[C@@H](O)[C@@H]2F)cc1I,MS,plaque count,EC50,CCRF-HSB-2,0.16 µM
Nc1ncnc2c1ncn2C[C@H]1C[C@H]1CO,,,EC50,VERO,>50 µM
CC#Cc1cn([C@@H]2O[C@H](COP(=O)(O)OCC(Cl)(Cl)Cl)[C@@H](O)[C@@H]2O)c(=O)[nH]c1=O,SC16,plaque count,EC50,VERO,>100 µM
COc1cc(F)c([C@H]2C[C@H](O)[C@@H](CO)O2)cc1[N+](=O)[O-],LYONS,cytopathic effect,EC50,E6SM,>400 µg/mL
CS(=O)Cc1cn([C@H]2C[C@H](O)[C@@H](CO)O2)c(=O)[nH]c1=O,LYONS G 196,cytopathic effect,EC50,PRK,>400 µg/mL
Cc1cc([C@H]2C[C@H](O)[C@@H](CO)O2)c(Cl)cc1F,196,cytopathic effect,EC50,E6SM,>400 µg/mL
O=c1[nH]cnc2c1ncn2OCCOCP(=O)(O)O,MS,plaque count,EC50,MRC-5,>340 µM
C/C(=N\NC(N)=S)c1ccccn1,X-79,plaque count,EC50,BHK-21/4,0.9 µg/mL
Nc1ncnc2c1ncn2[C@@H]1CC[C@@H](O)[C@H]1O,G,,MIC,,>400 µg/mL
O=c1[nH]c(=O)n(C2CC(CO)[C@H](O)C2)cc1I,G,cytopathic effect,EC50,PRK,20 µg/mL
Nc1nccc2c1ncn2[C@@H]1CC[C@@H](O)[C@H]1O,G,,MIC,,>400 µg/mL
CCc1cn([C@H]2C[C@H](O)[C@@H](CO)O2)c(=O)[nH]c1=O,MS,,MIC,,10 µg/mL
O=c1c2ncn(COC(CO)CO)c2[nH]c2nccn12,G,cytopathic effect,EC50,,2 µg/mL
CC(=O)O[C@H]1CC2=CCC3C(CCC4(C)C(C(CCC=C(C)C)COS(=O)(=O)O)CCC34)C2(C)C[C@@H]1OS(=O)(=O)O,G,plaque count,EC50,VERO,22.4 µg/mL
Nc1nc2c(ncn2COCOCP(=O)(O)O)c(=O)[nH]1,,cytopathic effect,EC50,VERO,11 µg/mL
COc1ccc(OC)c(/C=N/N=C(/N)NO)c1.Cc1ccc(S(=O)(=O)O)cc1,G,plaque count,EC50,VERO,50 µM
CC#Cc1cn([C@@H]2O[C@H](COP(=O)(N[C@@H](C)C(=O)OC)Oc3ccccc3)[C@@H](O)[C@@H]2O)c(=O)[nH]c1=O,SC16,plaque count,EC50,VERO,>100 µM
CC1(CO)CCC(Cn2nnc3c(N)ncnc32)C1(C)C,G,cytopathic effect,EC50,E6SM,>100 µg/mL
CC#Cc1cn([C@@H]2O[C@H](COP(=O)(N[C@H](C(=O)OC)C(C)C)Oc3ccccc3)[C@@H](O)[C@@H]2O)c(=O)[nH]c1=O,SC16,plaque count,EC50,VERO,>100 µM
O[C@@H]1[C@H](O)[C@H](O)CO[C@H]1n1c(Br)nc2cc(Cl)c(Cl)cc21,,plaque count,EC50,HFF,>50 µM
Nc1ncnc2c1ncn2C[C@H]1C[C@H]1[C@H](O)CO,,,EC50,VERO,>50 µM
Nc1nc2c(ncn2COCCO)c(=O)[nH]1,,,EC50,VERO,0.31 µM
C/C(=N\NC(=S)N(C)C1CC2CCC1CC2)c1ccccn1,X-79,plaque count,EC50,BHK-21/4,0.11 µg/mL
OC[C@H]1O[C@H](c2cc(I)c(F)cc2F)C[C@@H]1O,G,cytopathic effect,EC50,E6SM,>400 µg/mL
CCCCCCCCCCCCCCCCOCCCOP(=O)(O)CO[C@H](CO)Cn1ccc(N)nc1=O,,plaque count,EC50,MRC-5,0.13 µM
COc1ccc(-c2cn3c(=O)c4ncn(COC(CO)CO)c4nc3[nH]2)cc1,LYONS,cytopathic effect,EC50,,0.02 µg/mL
OC[C@H]1O[C@@H](n2c(Br)nc3cc(Cl)c(Cl)cc32)[C@H](O)[C@@H]1O,,plaque count,EC50,HFF,>251 µM
Nc1ncnc2c1ncn2[C@@H]1O[C@@H](CO)[C@H](O)[C@H]1O,G,cytopathic effect,EC50,VERO B,>1000 µM
Cc1ccc(S(=O)(=O)O)cc1.N/C(=N/N=C/c1ccc2c(c1)OCO2)NO,G,plaque count,EC50,VERO,>50 µM
N#Cc1cc([C@H]2C[C@H](O)[C@@H](CO)O2)c(F)cc1F,LYONS,cytopathic effect,EC50,E6SM,>400 µg/mL
Cn1cc(C(=O)NCc2ccc(Cl)cc2)c(=O)c2cc(CN3CCOCC3)ccc21,11572 (ACV-resistant),plaque count,EC50,HFF,2.6 µM
CC(C)Oc1ccccc1CNC(=O)c1ccc2cnccc2n1,E194,plaque count,EC50,HFF,0.6 µM
OC[C@H]1O[C@@H](c2cc(Br)c(F)cc2F)C[C@@H]1O,LYONS,cytopathic effect,EC50,E6SM,>400 µg/mL
O=C(NCc1ccc(Cl)cc1)c1cn2c3c(cc(CN4CCOCC4)cc3c1=O)OC(c1cccnc1)C2,11680 (ACV-resistant),plaque count,EC50,HFF,7.5 µM
Nc1ncnc2c1ncn2C[C@@H](CO)OCP(=O)(O)O,,,MIC,,4 µg/mL
O=C(C1CC1)N(O)c1ccc(Cl)cc1,G,cytopathic effect,EC50,E6SM,>80 µg/mL
CCC(=O)C(CCCCCCOc1ccc(OCCCCCCC(C(=O)CC)C(=O)CC)cc1)C(=O)CC,Curtis,plaque count,EC50,,>3 µg/mL
CCO[C@@H]1[C@@H](OCC)[C@H](Cc2ccccc2)O[C@@H]2CO[C@@H](c3ccc(Cl)cc3)O[C@@H]12,,cytopathic effect,EC50,HFF,<0.03 µg/mL
CCc1cn([C@@H]2O[C@H](CO)[C@@H](O)[C@@H]2O)c(=O)[nH]c1=O,MS,,MIC,,100 µg/mL
Nc1ccn(C[C@@H](CO)OCP(=O)(O)O)c(=O)n1,,,MIC,,10 µg/mL
CC1=C[C@H](n2ccc(N)nc2=O)CC1(CO)CO,,,EC50,,>100 µg/mL
Cc1cc([C@H]2C[C@H](O)[C@@H](CO)O2)c(F)cc1Cl,196,cytopathic effect,EC50,E6SM,>400 µg/mL
Nc1ccn(C[C@@H](CO)OCP(=O)(O)O)c(=O)n1,G,plaque count,EC50,HEL,0.4 µM
O=c1[nH]c(=O)n([C@H]2C[C@H](O)[C@@H](CO)O2)cc1I,LYONS,cytopathic effect,EC50,PRK,1 µg/mL
CC1=C[C@H](n2cnc3c(N)ncnc32)C[C@]1(C)CO,,,EC50,,>100 µg/mL
CC(C)=CCCC(COS(=O)(=O)O)C1CCC2C3CC=C4C[C@H](O)[C@@H](OS(=O)(=O)O)CC4(C)C3CCC12C,TYPE G,plaque count,EC50,VERO,51.5 µg/mL
Cc1cc([C@@H]2C[C@H](O)[C@@H](CO)O2)c(F)cc1Cl,G,cytopathic effect,EC50,E6SM,>400 µg/mL
CC[C@H](C)[C@H](N)[C@H](O)n1nc(C)c2c(Cl)c3cc(OC)ccc3nc21,,plaque count,EC50,WI-38,7 µg/mL
C/C(=N\NC(=S)N(C)C)c1ccccn1,X-79,plaque count,EC50,BHK-21/4,0.17 µg/mL
Nc1nc2c(ncn2COC(CO)CO)c(=O)[nH]1,333,plaque count,EC50,,0.2 µM
CC1(CO)CCC(Cn2ccc(=O)[nH]c2=O)C1(C)C,G,cytopathic effect,EC50,E6SM,>400 µg/mL
Nc1nccc2c1ncn2[C@@H]1C=C(CO)[C@@H](O)[C@H]1O,G,,MIC,,>400 µg/mL
Cc1cc([C@@H]2C[C@H](O)[C@@H](CO)O2)c(F)cc1F,G,cytopathic effect,EC50,E6SM,>400 µg/mL
Nc1ncnc2c1ncn2[C@H]1C[C@@H](O)[C@H](CO)O1,G,cytopathic effect,EC50,VERO B,>1000 µM
O=c1c2ncn(COCCO)c2[nH]c2ncc(C(c3ccccc3)(c3ccccc3)c3ccccc3)n12,LYONS,cytopathic effect,EC50,,>16 µg/mL
Nc1ccn(C[C@H]2COP(=O)(O)CO2)c(=O)n1,,,EC50,MRC-5,8.3 µM
CCCCCCCCCCCCCCCCCCOCCCOP1(=O)CO[C@@H](Cn2ccc(N)nc2=O)CO1,,plaque count,EC50,MRC-5,0.28 µM
Nc1ccn(C[C@@H](CO)OCP(=O)(O)O)c(=O)n1,8713 (TK-),plaque count,EC50,MRC-5,2.2 µM
Nc1nc2c(ncn2[C@@H]2C[C@H](CO)C[C@H]2O)c(=O)[nH]1,MS,cytopathic effect,EC50,VERO,260 µg/mL
Nc1nc(=O)n([C@H]2C[C@H](O)[C@@H](CO)O2)cc1/C=C/Br,LYONS,cytopathic effect,EC50,Primary rabbit kidney cells,9 µg/mL
O=c1c2ncn(COC(CO)CO)c2nc2[nH]c(-c3ccccc3)cn12,G,cytopathic effect,EC50,,0.3 µg/mL
COc1cc(/C=N/N=C(/N)NO)cc(OC)c1OC.Cc1ccc(S(=O)(=O)O)cc1,G,plaque count,EC50,VERO,>50 µM
O=c1[nH]c(=O)n([C@H]2C[C@@H](CO)[C@H](O)C2)cc1/C=C/Br,G,cytopathic effect,EC50,PRK,20 µg/mL
CC(=O)O[C@H]1O[C@@H](SC2=N/C(=C\c3ccccc3)C(=O)N2c2ccccc2)[C@H](OC(C)=O)[C@@H](OC(C)=O)[C@@H]1OC(C)=O,MS,ELISA,EC50,VERO,100 µM
O=c1[nH]c(=O)n([C@@H]2O[C@H](CO)[C@@H](O)[C@@H]2O)cc1/C=C/Cl,MS,plaque count,EC50,CCRF-HSB-2,>382 µM
Nc1ncnc2c1c(Br)cn2COCCO,,cytopathic effect,EC50,VERO,100 µM
Cc1cn([C@H]2C[C@H](N=[N+]=[N-])[C@@H]([C@@H](C)O)O2)c(=O)[nH]c1=O,,,EC50,,300 µg/mL
O=c1[nH]c(=O)n([C@@H]2S[C@H](CO)[C@@H](O)[C@@H]2F)cc1I,MS,plaque count,EC50,CCRF-HSB-2,0.47 µM